Results reported in the supplement of paper PMC9931576.
Human monoclonal antibodies against the spike receptor-binding domain (heavy:light variable regions). IC50 against pseudoviruses bearing the spike of naturally observed variants; lower = stronger; >10 µg/ml means not reached at the top dose. No active / inactive call. The stated detection limit is 0.0005 µg/ml; values near or below 0.001 µg/ml lie at the floor of the assay.

B1: DH1044 (protein)
chain 1: QVQLVESGGGVVQPGRSLRLSCAASGFTFSSYGMHWVRQAPGKGLEWVAVISFDGSNKYYVDSVKGRFTISRDNSKNTLYLQMNSLRAEDTAVYYCAKDMHNDYGDYVSYYFYYGMDVWGQGTTVTVSS
chain 2: QSVLTQPPSVSAAPGQKVIISCSGSSSNIGNNYVSWYQQLPGTAPKLLIYENNKRPSGIPDRFSGSKSGTSATLGITGLQTGDEADYYCGTWDSSLRTDVFGGGTKLIVL
B2: BD56-164 (protein)
chain 1: EVQLVESGGGLVQPGGSLRLSCAASGFTFSSYWMTWVRQAPGKGLEWVANIKQDGSDKYYVDSVKGRFTISRDNAKNSLYLQMNSLRAEDTAVYYCARDTYFYDSSAYFINWFDPWGQGTLVTVSS
chain 2: QSVLTQPPSVSGAPGQRVTISCTGSTSNIGAGYDVHWYQQLPGTAPKLLIYNNNNRPSGVPDRFSGSKSGTSASLAITGLQAEDEADYYCQSSDSSLSTSYVFGTGTKVTVL
B3: BD56-149 (protein)
chain 1: EVQLVQSGAEVKKPGESLKISCKGSGYTFISYWIAWVRQTPGKGLEWMGIIYPGDSETRYSPSFQGQATISVDKSIRTAYLQWSNLKASDTAMYFCARHADPHYYYDGSGVFDSWGQGTMVTVSS
chain 2: SFELTQPPSVSVSPGQTASITCSGDKLGNNYASWYQQRPGQSPVVVIYEDTKRPSGIPERFAGSNSGNTATLTISETQAMDEADYYCQAWDSGTYVLFGGGTKLTVL
B4: BD56-153 (protein)
chain 1: QVQPVQSGAEVKKPGSSVKVSCKASGGTFSSYAITWVRQAPGHGLEWLGGIIPIFGPPNYAQKFQGRVTITADVSTSTAYMELSSLRSEDTAVYFCARGHYYDSTEGGIWFDSWGQGTLVTVSS
chain 2: QSALTQPASVSGSPGQSITISCTGTSSDVGGYHYVSWYQQHPGKAPKLMIYDVSHRSSGVSSRFSGSKSGNTASLTISGLQAEDEAHYYCTSYATSSTLLFGGGTKVTVL
B5: BD56-156 (protein)
chain 1: EVQLVESGGGLVQPGGSLRLSCAASGFTFSNYDMHWVRQRPGKGLEWVSTIGTGGDTYYPGSVKGRFTISRENAKKSLFLQMNSLRAGDTAVYYCARVAYYSDSSPYQYWYFDLWGRGTLVTVSS
chain 2: DIQVTQSPSSLSASVGDRVTITCRASHNIRSYLNWYQQKPGKAPKLLIYAASTLQSGVPSRFSGSGSGTDFTLAITGLQPEDFATYYCQQSYSAPPWTFGQGTKVDIK
B6: BD56-154 (protein)
chain 1: QVQLQESGPGLVKPSETLSLSCTVSGGSTSSNTSYWGWIRQPPGKGLEWIAIIDYRGSTYYSPSLKSRVTMSVDTSKNQISLKLSSVTAADTAVYYCARGIAASSTDDYYYYYGMDVWGQGTTVTVSS
chain 2: SYELTQPPSVSVSPGQSAKITCSGDSFPKQYAYWYQQKPGQAPVLVIYKDNERPSGIPERFSGSSSGTTVTLTISGVQAEDDADYYCHSADSTHTFWVFGGGTKLTVL

Biological target: SARS-CoV-2 Omicron BA.1 spike pseudovirus
Test: pseudovirus neutralization IC50; higher = weaker neutralization
Protocol: (§1)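 Single-round VSV luciferase pseudovirus mixed with antibody dilutions for 1 h and put on Huh-7 cells for about a day; IC50 from the dose curve.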

Point of comparison: B4, “pseudovirus neutralization IC50” value 7.05 µg/mL. Against it:
- B1 — 83-fold lower, 0.085 µg/mL
- B2 — higher, > 10 µg/mL
- B3 — 36-fold lower, 0.195 µg/mL
- B5 — higher, > 10 µg/mL
- B6 — 9.8-fold lower, 0.716 µg/mL

Biological target: SARS-CoV-2 Omicron BA.2 spike pseudovirus
Test: as above
Protocol: as §1

Point of comparison: B6, “pseudovirus neutralization IC50” value 0.846 µg/mL. Against it:
- B1 — 11-fold lower, 0.075 µg/mL
- B2 — higher, > 10 µg/mL
- B3 — 2.3-fold lower, 0.374 µg/mL
- B4 — 8.3-fold higher, 6.99 µg/mL
- B5 — higher, > 10 µg/mL

Biological target: SARS-CoV-2 Omicron BA.2.75 spike pseudovirus
Test: as above
Protocol: as §1

Point of comparison: B1, “pseudovirus neutralization IC50” value 0.0819 µg/mL. Against it:
- B2 — higher, > 10 µg/mL
- B3 — 2.6-fold higher, 0.211 µg/mL
- B4 — 93-fold higher, 7.63 µg/mL
- B5 — higher, > 10 µg/mL
- B6 — 9.2-fold higher, 0.755 µg/mL

Biological target: SARS-CoV-2 Omicron BA.5 spike pseudovirus
Test: as above
Protocol: as §1

Point of comparison: B3, “pseudovirus neutralization IC50” value 0.299 µg/mL. Against it:
- B1 — higher, > 10 µg/mL
- B2 — higher, > 10 µg/mL
- B4 — 26-fold higher, 7.91 µg/mL
- B5 — higher, > 10 µg/mL
- B6 — 2.4-fold higher, 0.725 µg/mL

Biological target: SARS-CoV-2 Omicron BQ.1.1 spike pseudovirus
Test: as above
Protocol: as §1

Point of comparison: B3, “pseudovirus neutralization IC50” value 5.73 µg/mL. Against it:
- B1 — higher, > 10 µg/mL
- B2 — higher, > 10 µg/mL
- B4 — higher, > 10 µg/mL
- B5 — higher, > 10 µg/mL
- B6 — 10-fold lower, 0.56 µg/mL

Biological target: SARS-CoV-2 Omicron XBB spike pseudovirus
Test: as above
Protocol: as §1

Point of comparison: B3, “pseudovirus neutralization IC50” value 2.74 µg/mL. Against it:
- B1 — higher, > 10 µg/mL
- B2 — higher, > 10 µg/mL
- B4 — higher, > 10 µg/mL
- B5 — higher, > 10 µg/mL
- B6 — within 1.5-fold, 1.92 µg/mL

Biological target: SARS-CoV-2 early D614G spike pseudovirus
Test: as above
Protocol: as §1

Point of comparison: B6, “pseudovirus neutralization IC50” value 1.67 µg/mL. Against it:
- B1 — 20-fold lower, 0.0827 µg/mL
- B2 — higher, > 10 µg/mL
- B3 — 4.5-fold lower, 0.371 µg/mL
- B4 — 3.9-fold higher, 6.53 µg/mL
- B5 — higher, > 10 µg/mL
